Pooled drug test results. Numbers come from NIAID ChemDB, via PubChem.

Common to all: cytotoxicity tests; measure: CC50

Rows are shuffled and stem from different studies. CCn is the concentration with n% toxicity to the cells. An empty or dashed field is not shown.

structure	method	cell line	value
COc1cc(CC[C@H](C[C@@H](CCc2cc(OC)c(OC)c(OC)c2)OC(C)=O)OC(C)=O)cc(OC)c1OC	XTT	1A2	119.6 µM
Cn1c2c(c(=O)n(C)c1=O)S[C@H]1[C@@H](O2)O[C@H](CO)[C@@H](O)[C@@H]1O	-	PBM	>100 µM
CCCCNc1cccc2c(-c3ccnc(NCCN4CCOCC4)n3)c(-c3ccc(F)cc3)nn12	-	VERO 76	>5 µM
COc1ccc(-c2cc(C(=O)O)c3ccccc3n2)cc1OC	-	HEK 293	>20 µM
Nc1nc2c(ncn2COCCO)c(=O)[nH]1	MTT / crystal violet	Madin-Darby bovine kidney	>100 µg/mL
CS[C@@]12CC3=CC=C[C@H](O)[C@H]3N1C(=O)[C@@]13C[C@H]4C(=O)C[C@@H](S1)[C@H](O)[C@H]4N3C2=O	luminescence	293T	>100 µM
Cc1ccc(C)n1-c1nc(-c2ccc(F)cc2)cs1	MTT	Lung adenocarcinoma cells	268 µM
CCOC(OCC)C(=O)NCCc1ccc(OC)c(OC)c1	-	BJ	<7.5 µM
Fc1ccc(Nc2nccc(-c3c(-c4ccc(F)cc4)nn4c(NC5CCCC5)cccc34)n2)cc1	-	VERO 76	>40 µM
NC(=S)c1nnn(Cc2ccccc2)c1N	MTT	Vero cell	26 µM
C[C@@]1(O)[C@H](O)[C@@H](CO)O[C@H]1n1cnc2c(=O)[nH]c(N)nc21	MTT / crystal violet	BHK-21	>100 µg/mL
CC(C)(O)[C@@H]1CC[C@@]2(C)CCC[C@](C)(O)[C@@H]2C1	XTT	1A2	>520 µM
C#CCCC(=O)CCCc1ccc(OC)c(OC)c1	-	BJ	<7.5 µM
Cn1c2c(c(=O)n(C)c1=O)S[C@H]1[C@@H](O2)O[C@H](COc2ccccc2)[C@@H](OCc2ccccc2)[C@@H]1OCc1ccccc1	-	PBM	>100 µM
CO[C@@H]1[C@H](N(C)C(=O)c2ccccc2)C[C@@]2(C)O[C@]1(C)n1c3ccccc3c3c4c(c5c6ccccc6n2c5c31)C(=O)NC4	fluorescence	ACH2	>5 µM
O=C1NC(=NCCc2ccc(Cl)c(Cl)c2)S/C1=C\c1ccc(-c2ccc(C(=O)O)c(O)c2)o1	MTT	HT-29	>100 µM
O=c1cnn([C@@H]2O[C@H](CO)[C@@H](O)[C@H]2O)c(=O)[nH]1	MTT / crystal violet	VERO 76	>100 µg/mL
Fc1ccc(Nc2nccc(-c3c(-c4ccc(F)cc4)nn4c(Nc5ccc(F)cc5)cccc34)n2)cc1	-	VERO 76	>40 µM
O=C(NCCc1ccccc1)C1=Cc2ccncc2CC1	-	MA-104	148 µM
O=C1/C(=C/c2ccc(-c3cc(C(F)(F)F)ccc3Cl)o2)SC(=S)N1Cc1ccc(F)cc1	MTT	BAE	2.2 µM
CS[C@@]12C[C@H]3C(=O)CC[C@H](O)[C@H]3N1C(=O)[C@]1(SC)CC3=CC=C[C@H](O)[C@H]3N1C2=O	luminescence	293T	>100 µM
CC(C)Oc1ccccc1CNC(=O)c1ccc2cnccc2n1	-	MA-104	13 µM
COc1ccc(-c2oc3cc(OC)cc(O)c3c(=O)c2O)cc1	XTT	1A2	>795.4 µM
CC(=O)O[C@@H]1[C@@H](OC(C)=O)[C@H](C)O[C@@H]2Oc3c(c(=O)n(C)c(=O)n3C)S[C@@H]21	-	PBM	46.2 µM
CO[C@@H]1[C@H](O)[C@@H](CO)O[C@H]1n1ccc(N)nc1=O	-	HBIII27	>100 µM
Cc1ccc(C)n1-c1ccc(C(=O)NN2C(=O)c3ccccc3C2=O)cc1	MTT	Lung adenocarcinoma cells	235 µM
CS[C@@]1(Cc2ccccc2)NC(=O)[C@@](Cc2ccccc2O)(SC)NC1=O	luminescence	293T	>100 µM
CCOC(=O)COc1ccc(C(O)O)cc1	-	HEK 293	>20 µM
CC1(C)CCC[C@@]2(C)[C@H]1CC[C@@]1(CO1)[C@@H]2C/C=C1\CCOC1=O	XTT	1A2	315.6 µM
COc1cccc2ccc(N3CCC(c4nc(-c5ccc(NCCO)nc5)no4)CC3)nc12	MTS	HepH2	>100 µM
Cc1ccc(C)n1-c1nc(-c2ccc(Cl)cc2Cl)cs1	MTT	Lung adenocarcinoma cells	232 µM
Fc1ccc(-c2nn3c(NC4CCCC4)cccc3c2-c2ccnc(NC3CCCC3)n2)cc1	-	VERO 76	>160 µM
O=[N+]([O-])c1ccc(-c2csc(-n3cccc3)n2)cc1	MTT	Lung adenocarcinoma cells	246 µM
COc1ccccc1CNC(=O)C1=Cc2ccncc2CC1	-	MA-104	93 µM
Cc1ccc(C)n1-c1nc(-c2ccc([N+](=O)[O-])cc2)cs1	MTT	Lung adenocarcinoma cells	253 µM
O=C(O)c1ccc(-c2ccc(/C=C3\SC(=S)N(CCc4ccc(Cl)c(Cl)c4)C3=O)o2)cc1O	MTT	HT-29	>100 µM
CC(C)(O)[C@@H]1CC[C@@]2(C)CCC[C@@](C)(O)[C@@H]2C1	XTT	1A2	630.7 µM
CS[C@@]12CC3=CC=C[C@H](O)[C@H]3N1C(=O)[C@@]13C[C@@H]4[C@@H]([C@@H](O)[C@@H](C[C@@H]4O)S1)N3C2=O	luminescence	293T	>100 µM
CCCCNc1cccc2c(-c3ccnc(NCCCO)n3)c(-c3ccc(F)cc3)nn12	-	VERO 76	>19 µM
C[C@H](NC(=O)[C@H](Cc1ccccc1)C[C@@H](O)[C@H](Cc1ccccc1)NC(=O)OC(C)(C)C)C(=O)N[C@@H]1C(=O)N(C)c2ccccc2-c2ccccc21	-	U-2 OS	>10 µM
Cc1ccc(C)n1-c1ccc(C(=O)NN2C(=O)c3c(F)c(F)c(F)c(F)c3C2=O)cc1	MTT	Lung adenocarcinoma cells	260 µM
Cn1c2c(c(=O)n(C)c1=O)S[C@@H]1[C@H](O2)O[C@H](COc2ccccc2)[C@@H](OCc2ccccc2)[C@@H]1OCc1ccccc1	-	PBM	>100 µM